PubChem BioAssay AID624099, ICCB-Longwood | 2012
Here is one part, drawn at random, of about 21,000 reagents tested. Of all reagents, 497 (2.4%) are marked active. 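Higher z means weaker E2 silencing; only reporter increases were scored, and knock-downs that hurt cell survival may mask genuine repressor factors.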 Reagents against one gene are numbered here.

Purpose: 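Knock-downs relieving repression by E2 of an HPV18 LCR luciferase reporter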 (primary screen)
Cells: human C33A cervical carcinoma cells (HPV-negative) stably expressing BPV1 E2 and an HPV18 LCR luciferase reporter
Reagent: siRNA pool against human genes, 40 nM
Duration: 72 h
Read-out: 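HPV18 LCR reporter light per well, converted to plate-wise z-scores that exclude control wells, and averaged over triplicate plates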
Reading the numbers: mean z-score and z-score: higher = stronger reporter signal, weaker E2 silencing
Active means: 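Hit if mean z-score reaches 2 and two or more of three replicate z-scores also reach 2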

target gene | reagent no. | mean z-score | z-score, replicate A | z-score, replicate B | z-score, replicate C | Outcome
LOC402532 (retired record) (GeneID 402532) | 1 | -0.52 | -0.62 | -0.45 | -0.51 | inactive
LOC391840 (retired record) (GeneID 391840) | 1 | -0.6 | -1.01 | -0.52 | -0.28 | inactive
IGHV4OR15-8 (GeneID 28317) | 1 | -0.02 | -0.23 | 0.12 | 0.05 | inactive
LOC54073 (retired record) (GeneID 54073) | 1 | 1.16 | 1.4 | 0.98 | 1.1 | inactive
FMC1 (GeneID 154791) | 1 | -2.1 | -2.15 | -2.02 | -2.15 | inactive
PNLIPRP2 (GeneID 5408) | 1 | -0.21 | 0.03 | -0.42 | -0.24 | inactive
LOC283584 (retired record) (GeneID 283584) | 1 | -0.66 | -1.02 | -0.43 | -0.52 | inactive
CBLN2 (GeneID 147381) | 1 | 0.01 | -0.72 | 0.64 | 0.1 | inactive
HOXD1 (GeneID 3231) | 1 | 0.56 | 0.94 | 0.29 | 0.45 | inactive
RNF168 (GeneID 165918) | 1 | -0.44 | -0.24 | -0.53 | -0.56 | inactive
TRMT1 (GeneID 55621) | 1 | 0.43 | 0.08 | 0.63 | 0.59 | inactive
NSD3 (GeneID 54904) | 1 | 1.31 | 1.05 | 1.3 | 1.59 | inactive
SLC19A1 (GeneID 6573) | 1 | -0.83 | -1.01 | -0.69 | -0.78 | inactive
FBXL9P (GeneID 26231) | 1 | -0.19 | -0.29 | -0.25 | -0.03 | inactive
MYLK4 (GeneID 340156) | 1 | 0.98 | 0.81 | 1.18 | 0.96 | inactive
LARP1 (GeneID 23367) | 1 | -0.06 | -0.22 | -0.03 | 0.08 | inactive
ITSN2 (GeneID 50618) | 1 | -2.83 | -2.73 | -3.1 | -2.66 | inactive
COG3 (GeneID 83548) | 1 | -0.53 | -0.26 | -0.6 | -0.73 | inactive
ZNF644 (GeneID 84146) | 1 | 0.96 | 1.08 | 0.82 | 0.99 | inactive

Records listed so far whose target name starts with F or f (2):
target gene | reagent no. | mean z-score | z-score, replicate A | z-score, replicate B | z-score, replicate C | Outcome
FMC1 (GeneID 154791) | 1 | -2.1 | -2.15 | -2.02 | -2.15 | inactive
FBXL9P (GeneID 26231) | 1 | -0.19 | -0.29 | -0.25 | -0.03 | inactive

Further entries follow:
target gene | reagent no. | mean z-score | z-score, replicate A | z-score, replicate B | z-score, replicate C | Outcome
TMPRSS6 (GeneID 164656) | 1 | 0.38 | 0.4 | 0.11 | 0.62 | inactive
RPRD1A (GeneID 55197) | 1 | -0.39 | -0.51 | -0.27 | -0.38 | inactive
DOCK9 (GeneID 23348) | 1 | -1.44 | -1.34 | -1.4 | -1.58 | inactive
ARHGAP42 (GeneID 143872) | 1 | 1.49 | 1.54 | 1.47 | 1.45 | inactive
ARHGAP42 (GeneID 143872) | 2 | 0.57 | 0.45 | 0.35 | 0.91 | inactive
LCN15 (GeneID 389812) | 1 | 0.55 | 0.57 | 0.64 | 0.45 | inactive
ELMOD2 (GeneID 255520) | 1 | -0.9 | -1.06 | -0.88 | -0.76 | inactive
REXO1L1P (GeneID 254958) | 1 | -0.49 | -0.66 | -0.38 | -0.43 | inactive
FAM24B (GeneID 196792) | 1 | -0.4 | -0.46 | -0.31 | -0.41 | inactive
NIT2 (GeneID 56954) | 1 | 0.58 | 0.63 | 0.15 | 0.96 | inactive
TSPAN1 (GeneID 10103) | 1 | -1.87 | -2.07 | -1.69 | -1.85 | inactive
HIPK3 (GeneID 10114) | 1 | 1.18 | 1.05 | 1.49 | 1.02 | inactive
NTSR2 (GeneID 23620) | 1 | -0.27 | -0.12 | -0.48 | -0.22 | inactive
EPB41L4B (GeneID 54566) | 1 | -1.33 | -1.18 | -1.37 | -1.43 | inactive
CNOT1 (GeneID 23019) | 1 | 0.95 | 0.76 | 1.23 | 0.85 | inactive
SAA1 (GeneID 6288) | 1 | 1.89 | 1.7 | 1.82 | 2.14 | inactive
KIAA2012 (GeneID 100652824) | 1 | 0.39 | 0.13 | 0.45 | 0.6 | inactive
KIAA2012 (GeneID 100652824) | 2 | 0.43 | 0.36 | 0.43 | 0.5 | inactive
ZNF440 (GeneID 126070) | 1 | 0.86 | 1.09 | 0.74 | 0.73 | inactive
ATP5F1E (GeneID 514) | 1 | 0.2 | 0.29 | 0.26 | 0.05 | inactive
PEDS1-UBE2V1 (GeneID 387522) | 1 | 0.65 | 0.98 | 0.14 | 0.82 | inactive
KRT83 (GeneID 3889) | 1 | 0.58 | 0.48 | 0.58 | 0.68 | inactive
NRGN (GeneID 4900) | 1 | 0.65 | 0.88 | 0.48 | 0.6 | inactive
KIN (GeneID 22944) | 1 | -0.09 | 0.33 | -0.31 | -0.27 | inactive
SLC4A8 (GeneID 9498) | 1 | 0.96 | 1.08 | 0.91 | 0.89 | inactive
SLC4A8 (GeneID 9498) | 2 | 0.01 | -0.34 | 0.45 | -0.08 | inactive
NUDT14 (GeneID 256281) | 1 | 0.24 | 0.51 | 0.14 | 0.07 | inactive
ALDH18A1 (GeneID 5832) | 1 | -0.47 | -0.27 | -0.41 | -0.73 | inactive
GPT2 (GeneID 84706) | 1 | 1.31 | 1.33 | 1.35 | 1.26 | inactive
BOC (GeneID 91653) | 1 | 0.22 | 0.26 | 0.44 | -0.05 | inactive
RPS15 (GeneID 6209) | 1 | -1.92 | -2.01 | -1.96 | -1.78 | inactive
ST3GAL2 (GeneID 6483) | 1 | -0.31 | -0.32 | -0.34 | -0.26 | inactive
ANKRA2 (GeneID 57763) | 1 | 1.61 | 1.69 | 1.85 | 1.28 | inactive
USP45 (GeneID 85015) | 1 | 0.97 | 0.95 | 1.16 | 0.79 | inactive
MCRS1 (GeneID 10445) | 1 | 1.73 | 1.86 | 1.5 | 1.84 | inactive
ITIH1 (GeneID 3697) | 1 | 1.33 | 1.09 | 1.4 | 1.5 | inactive
WWC3 (GeneID 55841) | 1 | 0.81 | 0.6 | 0.82 | 1.01 | inactive
PI4K2A (GeneID 55361) | 1 | -0.56 | -0.81 | -0.69 | -0.18 | inactive
